Values of other authors as cited in patent US20170369677A1, “MATERIALS FREE OF ENDOCRINE DISRUPTIVE ACTIVITY” (CertiChem, Inc., priority 2006, published 2017).

Conditions: statement in words

Cc1cc(C(C)(C)C)c(O)c(C(C)(C)C)c1 [BHT, Butylated hydroxytoulene]
toxic effects stated in text: other toxic activity
